Results: paper PMC12057359, “Inhibitory effect of copper chelators on the budding in Candida albicans” (Antimicrobial Agents and Chemotherapy, 2025)
Some ranges recur; such a range may be that of the whole group of compounds.

Tested on: C. albicans JCM1542
Test: iHOPE antimicrobial microdilution assay (turbidity OD600)
Format: cell-based, Candida albicans
Settings: C. albicans JCM1542 antifungal activity

| Compound | fold lower activity than 1 |
| --- | --- |
| [C-]#[N+][C@@H](C)CC(=O)Nc1ccc(NC(=O)C[C@H](C)[N+]#[C-])cc1 [13b] | 2–5 fold |
| [C-]#[N+][C@H](C)CC(=O)Nc1cccc(NC(=O)C[C@@H](C)[N+]#[C-])c1 [14a] | 2–5 fold |
| [C-]#[N+][C@@H](C)CC(=O)Nc1cccc(NC(=O)C[C@H](C)[N+]#[C-])c1 [14b] | 2–5 fold |
